From patent US20250387458A1, “COACTIVE COMBINATIONS OF ANTIMICROBIALS WITH DISPERSINB” (KANE BIOTECH INC., priority 2020, published 2025)

Columns and labels:
[1] = tested on: S. epidermidis biofilm; test: Compatibility between antimicrobials or antibiotics and DspB, biofilm dispersal assay in buffer (Method 3); format: cell-based, Staphylococcus epidermidis; conditions: mixture stored at 37° C., 20 μg/ml DspB, antimicrobial concentration per figure legend
Method: Method 3: Method to Test Compatibility Between Antimicrobials or Antibiotics and DspB Using Biofilm Dispersal Assay
S. epidermidis biofilm was grown in 96-well plate and washed three times using sterile water to remove planktonic cells. Antimicrobials or antibiotics and DspB formulations were prepared in 50 mM phosphate or citrate buffer and stored at 37° C. for 2 h and used for treating biofilm at 0 and 2 h. Biofilm was treated using antimicrobials or antibiotics and DspB formulations for 10 min. After treatments, solutions were removed and washed 3 times to remove dispersed biofilm. Remaining biofilms in 96-well plates were stained using Crystal violet, unbound crystal violet was removed by washing the wells with sterile water, the biofilm bound crystal violet was eluted using 33% acetic acid, and the absorbance at 620 nm was taken using a microwell plate reader. Percent biofilm removal was calculated. Data was analyzed using ANOVA and Tukey's test.

[2] = tested on: DspB; test: Compatibility between antimicrobials or antibiotics and DspB, enzymatic assay in buffer (Method 4); format: biochemical, Aggregatibacter actinomycetemcomitans; conditions: 100 μg/mL DspB; for Time DspB was active in the presence of the antimicrobial, enzymatic assay: antimicrobial concentration per figure legend
Method: Method 4: Method to Test Compatibility Between Antimicrobials or Antibiotics and DspB Using Enzymatic Assay
DspB (200 μg/mL) and antimicrobial agent/antibiotic stocks were prepared in respective buffers. 10 mM paranitrophenol (PNP) in 400 mM sodium carbonate, and the buffer (same DspB stock) was used as the standard solution, and negative control, respectively. DspB stock and antimicrobial stock were mixed in equal proportions, and then 4×5 μl samples were taken at defined time points (0, 5, 10, 20, 30, 60, and 120 min) and used to measure the DspB enzyme activity. DspB enzymatic activity was measured using β-N-Acetylglucosaminidase assay kit from Sigma (product code CS0780) in 96-well microtiter plate following the manufacturer's instructions. The plate was incubated for 30 minutes before terminating the reaction. Data analysis was done in Excel. Student T test (paired) was performed for each time point separately using DspB activity in mixture and in control sample as two set of variables.

[3] = tested on: DspB; test: Compatibility between antimicrobials or antibiotics and DspB in gel, enzymatic assay (Method 6); format: biochemical, Aggregatibacter actinomycetemcomitans; conditions: PF127 wound gel; 100 μg/mL DspB
Method: Method 6: Method to Test Compatibility Between Antimicrobials or Antibiotics and DspB in Gel Using Enzymatic Assay
DspB gel containing 200 μg/ml DspB, 16% […] (PF127), 50 mM Phosphate buffer or citrate, 100 mM NaCl, pH 5.9, and 2× concentrated antimicrobial agent/antibiotics in 16% Poloxamer 405, 50 mM Phosphate buffer, 100 mM NaCl, pH 5.9 were mixed in equal proportions. 4×5 μL aliquots were withdrawn at 0, 5, 10, 20, 30, 60, and 120 min for measurement of DspB enzymatic activity. DspB enzymatic activity was measured using β-N-acetylglucosaminidase assay kit from Sigma (product code CS0780) in 96-well microtiter plate following the manufacturer's instructions. The plate was incubated for 30 minutes before terminating the reaction. Data analysis was done in Excel. Student T test (paired) was performed for each time point separately using DspB activity in mixture and in control sample as two set of variables. […]

| Structure (SMILES) | Time DspB retained its activity in the presence of the antimicrobial, biofilm dispersal assay [1] | Time DspB retained its activity in the presence of the antimicrobial, biofilm dispersal assay ([1]; listed as gentamicin sulfate) [h] | Time DspB was active in the presence of the antimicrobial, enzymatic assay [2] | Time DspB was active in the presence of the antimicrobial, enzymatic assay [3] | Time by which DspB lost its activity in the presence of the antimicrobial, enzymatic assay [2] [h] |
| --- | --- | --- | --- | --- | --- |
| CNC1C(O)[C@@H](O[C@H]2C(N)C[C@H](N)C(O[C@H]3OC([C@@H](C)N)CCC3N)C2O)OC[C@]1(C)O (stereo partly shown) [Gentamicin sulfate] | up to 2 h | ≤ 2 | up to 2 h | up to 2 h |  |
| Cc1ncc([N+](=O)[O-])n1CCO [Metronidazole] | up to 2 h |  | up to 2 h | up to 2 h |  |
| C/C(=C\C(=O)OCCCCCCCCC(=O)O)C[C@@H]1OC[C@H](C[C@@H]2O[C@H]2[C@@H](C)[C@H](C)O)[C@@H](O)[C@H]1O [Mupirocin] |  |  | up to 2 h | up to 2 h |  |
| CCCCCCCCN=c1ccn(CCCCCCCCCCn2ccc(=NCCCCCCCC)cc2)cc1.Cl.Cl [Octenidine dihydrochloride, octenidine dihydrochloride] |  |  | up to 2 h | up to 2 h | ≤ 2 |
| CO[C@H]1/C=C/O[C@@]2(C)Oc3c(C)c(O)c4c(O)c(c(/C=N/N5CCN(C6CCCC6)CC5)c(O)c4c3C2=O)NC(=O)/C(C)=C\C=C\[C@H](C)[C@H](O)[C@@H](C)[C@@H](O)[C@@H](C)[C@H](OC(C)=O)[C@@H]1C [rifapentine] |  |  | up to 2 h |  |  |

Structures can show the parent of a compound that is named as a salt.
